Construct, isoform or probe ends are uncertain for at least one entry. A weaker result is weaker than the reference pair of the same experiment.
Columns and labels:
Experiment in all cases: fluorescence anisotropy
Settings in all cases: recombinant protein
NELF ΔA tentacle (human) = tested on: NELF ΔA tentacle (human)
NELF ΔE tentacle (human) = tested on: NELF ΔE tentacle (human)
[1] = tested on: NELF ΔAE tentacle (human)

Measured: binding result

CCAGAUCUGAGCCUGGGAGCUCUCUGG [HIV-1 TAR stem loop]
binds more weakly: all assays above

— paper doi:10.1101/2024.08.29.610268
